According to paper doi:10.1101/2025.02.16.638509 (bioRxiv, 2025):

B1: refolded WT Orf9b (apo-homodimer) (natural protein)
chain: not shown
B2: Orf9b Δ91–97 (domain or fragment)
chain: not shown

Columns and labels:
[1] = target: T1, biotinylated Tom70 ([…]), AVI-tagged (human, biotin (AVI-tag, BirA co-expression)); test: SPR; details: both partners purified
T1 construct: also called biotin-Tom70; immobilized Tom70

[2] = target: hTom70 ([…]) lacking the transmembrane domain (human); test: fluorescence polarisation; details: both partners purified

Binder | Kd [1] [nM] | koff, fold slower than that of the Orf9b peptide [1] | kon, fold slower than that of the Orf9b peptide [1] | binding result [2]
B1 | 190 ± 1 | ~10 fold slower than the Orf9b peptide | ~3 times slower than the Orf9b peptide | 
B2 |  |  |  | binds
